Assay [1] addresses dimeric Fc-tagged bACE2_(R.cor) (Rhinolophus cornutus).
Assay [2] has as its target Fc-tagged Rhinolophus cornutus ACE2 (bACE2R.cor-WT-Fc), AA 1-731 (Rhinolophus cornutus).
Assay [3] has as its target dimeric His-tagged Rhinolophus cornutus bat ACE2 (bACE2_(R.cor)), Rhinolophus cornutus.

As usually defined, the Kd is a measure of binding affinity in units of concentration. Higher therefore signals weaker binding. Regarding Monomeric BANAL-20-236-RBD, the Kd in assay [1] was determined as 981 nM.
The koff is the first-order rate constant of dissociation. A higher koff goes with fast dissociation. As usually defined, the kon is a measure of how fast the partners come together. In assay [2], monomeric BANAL-20-236 RBD gave a Kd of 980 nM, a dissociation rate constant (koff) of 0.0113 s⁻¹ and a kon of 11500 M⁻¹ s⁻¹.
On to Rc-o319-RBD-Fc (wild type), for which the Kd in assay [3] worked out at 241 nM.

The record behind these values is paper PMC13232947, “Structural basis for sarbecovirus Rc-o319 spike adaptation to Rhinolophus cornutus Bat ACE2 and constraints on switching to human ACE2” (2026).
